Anti-infective test results gathered from many reports (values: NIAID ChemDB through PubChem).

Shared fields: tests in culture; organism: Varicella zoster virus; endpoint: EC50

Rows are shuffled and stem from different studies. ECn: concentration that inhibits the pathogen or its effect by n%. Blank or dashed fields: not listed here.

compound | strain | cells | read by | result
O=c1ccn([C@H]2C[C@H](O)[C@@H](CO)O2)c(=S)[nH]1 | HOSEN | MRC-5 | plaque count | >412 µM
C[C@H](N)C(=O)O[C@H]1C[C@H](n2cc(/C=C/Br)c(=O)[nH]c2=O)O[C@@H]1COP1(=O)OCc2ccccc2O1 | OKA | HELF | plaque count | 0.03 µg/mL
O=c1[nH]c(=S)n([C@@H]2O[C@H](CO)[C@@H](O)[C@@H]2O)cc1Cl | HOSEN | MRC-5 | plaque count | 263 µM
Nc1nc(N)c2ncn(CCOCP(=O)(O)O)c2n1 | ACV-resistant | HEL | plaque count | 0.94 µg/mL
Nc1nc2ncn(COCCCl)c2c(=O)[nH]1 | YS (TK+) | VERO | cytopathic effect | >128 µg/mL
Nc1nc(N)c2ncn(CC/C=C/P(=O)(O)O)c2n1 | ELLEN | MRC-5 | plaque count | >300 µM
Cc1cccc2c1OP(=O)(OC[C@H]1O[C@@H](n3cc(/C=C/Br)c(=O)[nH]c3=O)C[C@@H]1OC(=O)C(C)(C)C)OC2 | OKA | HELF | plaque count | 0.076 µg/mL
COc1nc(N)nc2c1ncn2C=C1CC1CO | - | HFF | plaque count | 23.9 µM
O=c1[nH]c(=O)n([C@H]2C[C@H](O)[C@@H](CO)O2)cc1-c1ccc(Cl)s1 | 13 isolates | HEL | plaque count | 0.25 µM
Nc1cc(OCCOCP(=O)(O)O)nc(N)n1 | OKA | - | cytopathic effect | 2.7 µM
Nc1nc2c(ncn2CCC(CO)CO)c(=O)[nH]1 | PMEA-resistant | HEL | plaque count | 4.9 µg/mL
Nc1nc2c(ncn2OCC/C=C\P(=O)(O)O)c(=O)[nH]1 | ELLEN | MRC-5 | plaque count | >300 µM
O=C1Cn2cc(C(=O)NCc3ccc(Cl)cc3)c(=O)c3cc(CN4CCOCC4)cc(c32)N1 | - | - | - | 0.06 µM
Cc1cccc2c1OP(=O)(OC[C@H]1O[C@@H](n3cc(/C=C/Br)c(=O)[nH]c3=O)C[C@@H]1OC(=O)[C@@H](N)CC(C)C)OC2 | OKA | HELF | plaque count | 0.033 µg/mL
Nc1ncnc2c1ncn2[C@@H]1O[C@H](CO)[C@H]1CO | 13 isolates | HEL | plaque count | 4.6 µM
Nc1ncnc2ncn(COCCCl)c12 | YS/R (TK-) | VERO | cytopathic effect | >128 µg/mL
Nc1[nH]c(=O)nc2c1ncn2/C=C1/C[C@H]1CO | - | HFF | cytopathic effect | >429 µM
Cc1cccc2c1OP(=O)(OC[C@H]1O[C@@H](n3cc(/C=C/Br)c(=O)[nH]c3=O)C[C@@H]1OC(=O)[C@H](N)C(C)C)OC2 | OKA | HELF | plaque count | 0.027 µg/mL
C[C@H](Cn1cnc2c(N)ncnc21)OCP(=O)(O)O | YS | - | cytopathic effect | ≥350 µM
O=c1[nH]c(=S)n([C@@H]2O[C@H](CO)[C@@H](O)[C@@H]2O)cc1Br | HOSEN | MRC-5 | plaque count | 141 µM
Nc1ncnc2c1ncn2CCOCP(=O)(O)O | Oka PFA-resistant/B | HEL | cytopathic effect | 79.8 µM
Nc1nc(N)c2ncn([C@@H]3S[C@H](CO)[C@H](O)[C@@H]3F)c2n1 | - | - | - | 0.101 µg/mL
Nc1nc2c(ncn2[C@@H]2O[C@H](CO)[C@H]2CO)c(=O)[nH]1 | YS/R (TK-) | HEL | plaque count | 1.8 µM
COC(=O)[C@H](C)NP(=O)(OC[C@H]1C/C1=C/n1cnc2c(OC)nc(N)nc21)Oc1ccccc1 | - | HFF | plaque count | 0.12 µM
C[C@H](Cn1cnc2c(NC3CC3)ncnc21)OCP(=O)(O)O | 07/1 (TK-) | - | - | 0.08 µg/mL
Nc1nc(F)nc2c1ncn2/C=C1\CC1CO | - | HFF | cytopathic effect | >69 µM
CC(=O)CCC(=O)O[C@H]1C[C@H](n2cc(/C=C/Br)c(=O)[nH]c2=O)O[C@@H]1COP1(=O)OCc2cccc(C)c2O1 | OKA | HELF | plaque count | 0.039 µg/mL
Nc1nc2c(ncn2CC/C=C\P(=O)(O)O)c(=O)[nH]1 | ELLEN | MRC-5 | plaque count | >300 µM
Cc1cn([C@@H]2O[C@H](CO)[C@@H](O)[C@@H]2O)c(=O)[nH]c1=O | YS/R (TK-) | HEL | plaque count | 19.8 µM
Nc1cc(OC[C@H](CO)OCP(=O)(O)O)nc(N)n1 | YS | - | cytopathic effect | 0.51 µM
O=C(O)CP(=O)(O)O | BVaraU-resistant | HEL | plaque count | 5.8 µg/mL
O=c1[nH]c(=O)n([C@H]2C[C@H](O)[C@@H](COP3(=O)OCc4cc(-c5ccccc5)ccc4O3)O2)cc1/C=C/Br | OKA | HELF | plaque count | 0.031 µg/mL
COC(=O)[C@H](C)NP(=O)(OCC1C/C1=C/n1cnc2c(N)ncnc21)Oc1ccccc1 | - | HFF | plaque count | 7.6 µM
Nc1ncnc2c1ncn2CC/C=C/P(=O)(O)O | ELLEN | MRC-5 | plaque count | >300 µM
Nc1nc(Cl)nc2c1ncn2/C=C1/CC1CO | - | HFF | cytopathic effect | >0.8 µM
Nc1ncnc2c1ncn2OCC/C=C\P(=O)(O)O | ELLEN | MRC-5 | plaque count | >300 µM
Nc1ccn(C[C@H]2COP(=O)(O)CO2)c(=O)n1 | 13 isolates | HEL | plaque count | 1.42 µM
CCC(C)C(N)C(=O)O[C@H]1C[C@H](n2cc(/C=C/Br)c(=O)[nH]c2=O)O[C@@H]1COP1(=O)OCc2cccc(C)c2O1 | OKA | HELF | plaque count | 0.026 µg/mL
C=C(/C=C/P(=O)(O)O)Cn1cnc2c(=O)[nH]c(N)nc21 | ELLEN | MRC-5 | plaque count | >300 µM
O=C(NCc1ccc(Cl)cc1)c1cn2c(CO)cc3cc(CN4CCOCC4)cc(c1=O)c32 | - | - | - | 0.16 µM

A second listing of 2 rows from above:

compound | strain | cells | read by | result
Nc1nc2c(ncn2CC/C=C\P(=O)(O)O)c(=O)[nH]1 | ELLEN | MRC-5 | plaque count | >300 µM
Cc1cccc2c1OP(=O)(OC[C@H]1O[C@@H](n3cc(/C=C/Br)c(=O)[nH]c3=O)C[C@@H]1OC(=O)C(C)(C)C)OC2 | OKA | HELF | plaque count | 0.076 µg/mL